Molecular target: SARS-CoV-2 B.1.617.2假病毒的刺突Δ19 (SARS-CoV-2)
Assay: cell-based or functional assay

Row | Binder | NT50(B.1.617.2)
1 | S-B2二聚体 (antibody, V domains shown) VH: QVQLQESGGGVVQPGRSLRLSCAASGFTFSSYAMHWVRQAPGKGLEWVAVISYDGSNKYYADSVKGRFTISRDNSKNTLYLQMNSLRAEDTAVYYCARDYGDYLLDYWGQGTLVTVSS VL: LSALTQPASASGSPGQSVTISCTGTSSDVGGYNYASWYQQHPGKAPKLLIYEVTKRPSGVPDRFSSSKSGNTASLTVSGLQAEDEADYYCSSYTGTLLLFGGGTKLTVL | 0.23 nM
2 | S-D9二聚体 (antibody, V domains shown) VH: QVQLVQSGAELKKPGESLKISCTASGYSFTNYWIAWVRQMPGKGLEWMGIVNPADSDTRYSPAFQGQVTMSADKSFNTAYLQWSRLKASDTAMYYCARLGQDHNSGWYTYFHPMDVWGQGTTVTVSS VL: QSALTQPASVSGSPGQSITISCTGTRSDVGGYNYVSWYQQHPGKAPKLLIFGVNDRPSGVSDRFSGSRTGNTASLTISGLQPEDEADYYCSSFTRGTTLLVFG | 0.24 nM

Reference: CN116406375A, “抗SARS-CoV-2刺突蛋白的三聚体抗体” (UNIV SHANGHAI TECHNOLOGY, dated 2023)
